In PMC10846240, “Pharmacokinetic/pharmacodynamic integration of amphenmulin: a novel pleuromutilin derivative against Mycoplasma gallisepticum” (Microbiology Spectrum, 2023):

Legend:
Assay type in all cases: cell-based, Mycoplasma gallisepticum
M. gallisepticum [1] = test: PK/PD integration, inhibitory Sigmoid Emax model
Description: Phoenix software was used to analyze the in vitro concentration–time data of amphenmulin and calculate the AUC and peak concentration (Cmax), which were combined with MIC to obtain PK/PD parameters. Concurrently, the anti-mycoplasma effect was derived from the dynamic time–kill curve, which was analyzed with the PK/PD index using an inhibitory Sigmoid Emax model as follows:
E=E0−(E0−Emax)×CeN/EC50N+CeN
E, anti-mycoplasma effect, the change in M. gallisepticum counts during 24 h of cultivation; E0, M. gallisepticum change in control (without drug); Emax, maximal effect produced by amphenmulin against M. gallisepticum during 24 h; Ce, PK/PD parameters (AUC/MIC or Cmax/MIC); EC50, the Ce value needed to produce 50% of maximal effect; N, Hill coefficient, the slope of the fitted curve.

[2] = tested on: M. gallisepticum strain S6; test: Static time-kill curves and Sigmoid Emax fit of kill rate
Description: Based on the MIC value from broth microdilution method, 7 mL blank medium, 0.2 mL amphenmulin solution, and 0.8 mL M. gallisepticum suspension were taken into 10-mL Celine bottles to make the final mycoplasma count of 10^7 CFU/mL, as well as final concentrations of amphenmulin of 1, 2, 4, 6, 8, 16, 32, and 64 MIC, respectively. Growth control (without drug) and negative control (blank medium) were also set up for culture. Then at 0, 6, 9, 12, 24, 36, and 48 h, 100 µL of each culture was taken for counting using the aforementioned method, with a lower limit of 100 CFU/mL. The experiment was repeated three times.
The efficacy of amphenmulin against M. gallisepticum was measured by the kill rate per unit of time. Considering the growth of M. gallisepticum observed in preliminary experiments, this study selected seven time periods of 0–24, 0–36, 0–48, 6–24, 6–36, 6–48, and 12–48 h to calculate the kill rates of amphenmulin. The Sigmoid Emax model in Phoenix was used to fit the relationship between mean kill rate and drug concentration, which is shown below:
E, kill rate of amphenmulin against M. gallisepticum within a period; E0, change rate of M. gallisepticum in the control group (without drug); Emax, maximum kill rate within a period; Ce, concentration of amphenmulin; EC50, drug concentration at half-maximal kill rate; N, Hill coefficient, reflecting the slope of the kill rate–concentration curve.

M. gallisepticum [3] = test: In vitro dynamic model (one-compartment, first-order elimination); conditions: doses of 0.1–1.5 μg/mL
Description: According to previous reports ([21][–][23]), an in vitro model compatible with M. gallisepticum growth and amphenmulin pharmacokinetics was developed ([24]). It comprised a reservoir chamber containing fresh, drug-free medium; a reaction chamber with a three-necked flask where amphenmulin interacts with M. gallisepticum, containing 300 mL of medium in the outer chamber (external compartment, EC) and 10 mL of M. gallisepticum culture (10^7 CFU/mL) in a semipermeable membrane chamber (internal compartment, IC); and a waste chamber collecting effluent, which were connected via tubing and controlled by a peristaltic pump (Fig. 2). In this model, the flow rate was calculated as 1.63 mL/min from the reaction chamber volume and amphenmulin’s elimination half-life (T1/2Ke) after intravascular administration in chickens, enabling dynamic changes in drug concentrations that simulate amphenmulin elimination in chickens and its activity against M. gallisepticum. The in vitro elimination of amphenmulin followed first-order kinetics:
where C0 is the initial amphenmulin concentration, C is the amphenmulin concentration at time t, k is the elimination rate constant, and t is the time after dosing. Based on the maximum concentration reached in chickens after oral administration of amphenmulin, six dosing regimens of 0.1, 0.2, 0.5, 0.8, 1.0, and 1.5 µg/mL were designed, administered every 24 h for three times. By injecting the drug into both sides of the dialysis membrane simultaneously, the drug concentrations inside and outside the membrane reached equilibrium rapidly. Samples from the reaction chamber were collected at 0.083, 0.167, 0.25, 0.50, 0.75, 1, 2, 3, 4, 6, 9, 12, 24, 24.08, 25, 30, 36, 48.08, 54, 60, and 72 h after dosing for determination of amphenmulin concentration. […]
The determination of amphenmulin in the medium referenced our laboratory’s method for extracting tiamulin ([25]) and was also detected by the HPLC-MS/MS method mentioned in the PK section.

C=C[C@]1(C)C[C@@H](OC(=O)CSc2ccccc2N)[C@]2(C)[C@H](C)CC[C@]3(CCC(=O)[C@H]32)[C@@H](C)[C@@H]1O [amphenmulin, 22-(2-amino-phenylsulfanyl)-22-deoxypleuromutilin]
Hill′s slope (M. gallisepticum [1]; index AUC24 h/MIC): 3.1997 | Hill′s slope (M. gallisepticum [1]; index Cmax/MIC): 1.3842 | Hill′s slope ([2]; period 0–24 h): 0.9238 | Hill′s slope ([2]; period 0–36 h): 0.4264 | Hill′s slope ([2]; period 0–48 h): 0.3760 | Hill′s slope ([2]; period 6–24 h): 2.7101 | Hill′s slope ([2]; period 6–36 h): 2.9068 | Hill′s slope ([2]; period 6–48 h): 0.4175 | Hill′s slope ([2]; period 12–48 h): 0.2919 | AUC at 0–24 h (M. gallisepticum [3]): 0.34 to 6.19 µg·h/mL | AUC at 24–48 h (M. gallisepticum [3]): 0.57 to 7.69 µg·h/mL | AUC at 48–72 h (M. gallisepticum [3]): 0.62 to 8.23 µg·h/mL
